Measurements taken from paper PMC6288124.
Tags and fusion partners may be left off the protein sequences shown.

Target: T1, SsrBc (C-terminal domain of SsrB) (UniProt Q7CQM5)
T1 sequence (looked up, limits assumed): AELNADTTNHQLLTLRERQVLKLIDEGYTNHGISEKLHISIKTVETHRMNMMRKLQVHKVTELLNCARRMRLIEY
Assay: EMSA
Settings: recombinant protein, protein details: N-terminal His6, label: none (ethidium bromide stain), probe letters rebuilt from the primers and the genome

| Sequence | binding result (argS promoter as competitor in same lane, shift at about the same molar ratio as PsseA) | binding result (positive control, argS promoter as competitor) |
| --- | --- | --- |
| GCAGAGCTCTGGCCGTATGCAGCGCGCCGGGATTCGGAGAGCTTCCGGTACGTCTGATCTCGCCACAAGAGGTCGGGGTAGAGCATCGGGGAAAAGGGCGCAATCAGCGCCTGGTGCATAACATCCTTCCTGATAGCCAGCTCGCCGACAGCCTGCTAGTCGTTGAAGTGTACACTAATGAAGGCGATACCAGCTCCTGGCCCGCGCACAAGCACGATACGGCAGTTGAAGGCCAGGAGACCTATCTGGAAGAGACGTACTATCACCGTTTCAATCCACCTCAGGGATTCTGCTTACAGCGCGTCTACACCGACGATCGCAGCCTGGATGAATGTATGGCGGTCTATAACCGGGATGTAGTGAAAGTACCTAAGGGCTACCACCCGGTTGCCACCATCGCGGGTTACGATAACTACTATCTGAACGTGATGGCCGGCCCGCTACGAAAATGGCGTTTCACCTGGGAAGAGAACCACGCGTGGATTAACTCACCAGACTACCCGCGATAAGGTACCCCG (double strand) [PrssR (PSTnc2160)] | binds | – |
| CGATGAGCTCACGGCAAGTTACAGGATCCGCAGCAATATCAGCAAAACACCTTATTGCTTGAAGCGATCGAGCAGGCCGAAAATATCATCAACATTATTTATTATCGTTACCATAACAGCGCACTTGTAGTGAGTGAGCAAGAGTAAAGTAAAAATATCTTAGAGCCTATCCCACCAGGCGTTAATTGGCGCAGCCAGTTTGGACACGGATAGCGCGCAAAAACCGCAGCGTACACGTAGTACGTGAGGTTTGACTCGCTACGCTCGCCCTTCGGGCCGCCGCTAGCGGCGTTCAAAACGCTAACGCGTTTTGGCGAGCACTGCCCAGGTTCAAAATGGCAAGTAAAATAGCCCTAATGGGATAGGCTCTTAGTTAGCACGTTAATTATCTATCGTGTATATGGAGGGGAGGTACCGGC (double strand) [PsseA] | – | binds |
